Values from PubChem BioAssay AID1224833 (University of Georgia, 2016)
Aim: 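Host factors restraining rotavirus as candidate antiviral genes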 (primary screen). Cells: monkey MA104 kidney cells. Reagent: siRNA pool against human genes, 50 nM. Time to read-out: 48 h knock-down before infection; read 24 h after infection. Conditions: infection with rotavirus strain RV3 two days after transfection; infectious dose for this stage not given. Read-out: 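Rotavirus antigen per well by fluorescent immunoassay, normalised to non-targeting control wells on each plate and given as a standard z-score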. Reading the numbers: z-score vs non-targeting control: higher = more rotavirus replication than with non-targeting control. Active means: In these data the active calls have z-score vs non-targeting control at about -1 or lower, or at about 1 or higher. Calls: active = z-score beyond 1 either way; inactive = z-score within 1 of zero.
Shown is an unselected part of about 12,000 reagents. About 5,600 of them (46%) count as active. 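Active calls cover z-scores past 1 in both directions, so they include lowered as well as raised rotavirus replication.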 A number with no mark means an inactive call.

no.	gene	z-score vs non-targeting control
1	USP1	0.851
2	EEF1A1	1.12 (active)
3	CGNL1	-0.534
4	THOC6	0.87
5	KLHL31	1.61 (active)
6	CEP162	-0.0895
7	UCP3	-1.19 (active)
8	CPNE6	0.439
9	CSTL1	-0.0942
10	RAB3IP	0.84
11	SNX2	-0.933
12	KCTD18	-1.22 (active)
13	APOBEC3D	-1.33 (active)
14	PSMB10	0.668
15	NUCLEOLIN	0.529
16	LTA	0.693
17	FABP2	-0.756
18	OR5D14	-1.69 (active)
19	RMND5A	-2.18 (active)
20	SPIDR	-1.08 (active)
21	FOXE1	-1.3 (active)
22	IGFBP3	0.501
23	RWDD1	-1.93 (active)
24	SCAF8	-0.337
25	HEXD	2.26 (active)
26	SDHAF4	-0.378
27	CGA	-2.82 (active)
28	VPS29	-1.16 (active)
29	SLC26A6	-0.504
30	TMEM243	-2.12 (active)
31	IL1R1	-1.61 (active)
32	SLC14A1	-3.42 (active)
33	POU4F2	-1.23 (active)
34	AVIL	0.259
35	GALNT1	0.955
36	MYL3	-1.69 (active)
37	MBD6	-3.01 (active)
38	USP34	0.798
39	TUBA1C	0.696
40	CEACAM19	-0.172
41	OR52K2	1.51 (active)
42	NHERF2	1.2 (active)
43	TMA16	-1.45 (active)
44	WRN	-2.1 (active)
45	TMX4	1.47 (active)
46	CLDN7	0.137
47	USP7	1.07 (active)
48	KHNYN	-2.42 (active)
49	THEMIS	0.41
50	ARHGEF4	0.187
51	GATA2	-1.87 (active)
52	FHL2	-0.34
53	ANGPTL7	0.711
54	LRRTM4	-1.01 (active)
55	LILRA4	0.122
56	C6orf89	-1.26 (active)
57	PCSK9	1.86 (active)
58	GIMAP8	-1.55 (active)
59	CRAMP1	-1.93 (active)
60	LRPPRC	-1.26 (active)
61	MAFB	-0.484
62	C1QTNF1	0.493
63	HARS1	1.25 (active)
64	NSG1	0.315
65	XK	-0.574
66	H3C3	0.25
67	IL25	-1.06 (active)
68	MRPL14	-1.05 (active)
69	NUP98	0.732
70	AKAP3	0.959
71	MDFIC	0.385
72	SLC12A9	-0.678
73	MAP6D1	1.27 (active)
74	HELB	-1.03 (active)
75	CCM2	-1.18 (active)
76	ANKRD23	-0.834
77	TMEM214	0.466
78	SNAPC3	0.584
79	LPIN1	0.793
80	SLC37A2	0.785
81	XPA	0.822
82	SLC14A2	2.22 (active)
83	CASQ1	0.123
84	CEACAM4	-0.0324
85	PER1	-1.15 (active)
86	FMO4	-1.97 (active)
87	NR2F2	-2.53 (active)
88	TLR5	0.647
89	TSPOAP1	0.593
90	TMEM33	-0.524
91	KLHL5	-1.5 (active)
92	COLEC12	0.847
93	TBXAS1	-0.547
94	ZC3H18	-1.16 (active)
95	PAICS	-1.48 (active)
96	EXOSC9	1.61 (active)
97	TIMM29	1.51 (active)
98	RFC4	-0.0646
99	TESMIN	-0.95
100	CARMIL2	-0.831
101	CNKSR3	-0.174
102	ZNF260	1.91 (active)
103	IGFLR1	0.501
104	ACTR1B	-0.113
105	OR9Q2	-2.59 (active)
106	DNAJB7	-1.29 (active)
107	CEP15	-0.139
108	GRAP2	0.164
109	FUT3	0.978
110	THRA	2.43 (active)

Single entries from the entries so far.
For “z-score vs non-targeting control”, SLC37A2 is entered as 0.785
For “z-score vs non-targeting control”, CGA reads -2.82 (active)
Under “z-score vs non-targeting control”, HELB reads -1.03 (active)
For “z-score vs non-targeting control”, IL25 is entered as -1.06 (active)
CSTL1, z-score vs non-targeting control → -0.0942
Under “z-score vs non-targeting control”, TIMM29 has 1.51 (active)
